Pooled drug test results. Numbers come from NIAID ChemDB, via PubChem.

Shared fields: growth or infection tests; organism: HIV-1

ECn is the concentration giving n% inhibition of infection, replication or growth. a–b is a range or a potency band. Conditions beyond the fields shown may differ between rows. An empty or dashed field is not shown.

compound | read by | strain or isolate | changes | read-out | cells | value
CCCCCOC(=O)C[C@H](NP(=O)(CO[C@@H](CF)Cn1ccc2c(=O)[nH]c(N)nc21)N[C@@H](CC(=O)OCCCCC)C(=O)OCCCCC)C(=O)OCCCCC | luciferase | NL4-3 | - | EC50 | TZM-bl | >4 µM
CC(C)[C@H](NC(=O)OCc1ccccc1)C(=O)N[C@@H](Cc1ccccc1)[C@@H](O)[C@H](O)[C@H](Cc1ccccc1)NC(=O)[C@@H](NC(=O)OCc1ccccc1)C(C)C | p24 / ELISA | RF | - | EC90 | MT-2 | 0.052 µM
Cc1cc(C#N)cc(C)c1Oc1nc(NC2CCN(Cc3cccc(C(N)=O)c3)CC2)nc2sccc12 | MTT | IIIB | NNRTI-resistant (RT Y188L) | EC50 | MT-4 | 0.017 µM
CCCc1c(C)[nH]c(=O)c(N(C)C)c1Cc1cc(C)cc(C)c1 | cytopathic effect / MTT | Recombinant | RT-Y181C | EC50 | MT-4 | 100 µM
Nc1nc2c(ccn2C[C@H](CF)OCP(=O)(O)O)c(=O)[nH]1 | luciferase | BaL | - | EC50 | TZM-bl | >100 µM
Nc1ccn([C@H]2CC[C@@H](CO)O2)c(=O)n1 | RT activity | Clinical isolate 263 | - | EC50 | MT-4 | 0.35 µM
C[C@H](Cn1cnc2c(N)ncnc21)OCP(=O)(O)O | luciferase | BaL | - | EC50 | TZM-bl | 0.02 µM
OC[C@@]1(F)O[C@@H](n2cnc3c(N(Cc4ccccc4)Cc4ccccc4)ncnc32)C[C@@H]1OCc1ccccc1 | - | - | - | EC50 | - | 4 µM
C[C@]12CC[C@H]3[C@@H](CCC4=CC(=O)CC[C@@]43C)[C@@H]1CC[C@@H]2C(=O)O | p24 | IIIB | - | EC50 | H9 | >67.3 µM
CCc1cn([C@H]2C[C@H](N)[C@@H](CO)O2)c(=O)[nH]c1=O | RT activity | LAV | - | EC50 | PBMC | <1 µM
C=O.Cc1cn(C2CC(N(N)N)C(OP(N)(=O)OCC3OC(n4ccc(N)nc4=O)CS3)O2)c(=O)[nH]c1=O | - | - | - | EC50 | MT-4 | 0.003 µM
Cc1cn(Cc2ccc(Br)c(Oc3cc(Cl)cc(C#N)c3)c2F)c(=O)[nH]c1=O | MTT | K103N/Y181C | NNRTI-resistant (RT K103N/Y181C) | EC50 | MT-4 | 0.011 µM
CC(C)=CCN1Cc2cc(Cl)cc3[nH]c(=S)n(c23)C[C@@H]1C | - | - | RT-M41L T215Y K103N | EC50 | MT-4 | <3 µM
C/C=C(/C)C(=O)O[C@@H]1[C@@H](C)[C@@]2(O)[C@@H](C=C(CO)C[C@]3(O)C(=O)C(C)=C[C@@H]23)[C@@H]2C(C)(C)[C@]12OC(C)=O | MTT | IIIB | - | EC50 | MT-4 | 0.009 µM
Cc1cn([C@H]2C[C@H](N=[N+]=[N-])[C@@H](CO)O2)c(=O)[nH]c1=O | MTT | IIIB | NNRTI-resistant (RT F227L V106A) | EC50 | MT-4 | 0.00479 µM
O=C1c2ccccc2C(=O)N1CCOC(=S)N(C(=O)c1ccccc1)c1ccc(Cl)cc1 | cytopathic effect / MTT | IIIB | - | EC50 | C8166 | <0.13 µM
C[n+]1ccc(-c2c3nc(c(-c4ccccc4)c4ccc([nH]4)c(-c4cc[n+](C)cc4)c4nc(c(-c5ccccc5)c5ccc2[nH]5)C=C4)C=C3)cc1 | RT activity | LAV | - | EC50 | PBMC | 0.34–1.87 µM
O=C1c2ccccc2C(=O)N1CCOC(=S)N(C(=O)c1ccco1)c1ccc(Cl)cc1 | cytopathic effect / MTT | IIIB | RT-K103R V179D P225H | EC50 | MT-4 | >100 µM
O=C(O)/C=C/c1ccc[c]([Sb](=[O])([OH])[OH])c1 | β-galactosidase | 92BR019 R5 clinical isolate | - | EC50 | MAGI | <10 µM
O=C(O)[C@@H](C1CCCCC1)N1C[C@H](CN2CCC(O)(CCCc3ccccc3)CC2)[C@@H](c2ccccc2)C1 | - | BaL | - | EC95 | PBMC | 0.187 µM
Cc1cc(C#N)cc(C)c1Oc1nc(NC2CCC(NCc3ccc(Br)cc3)CC2)nc2ccsc12 | MTT | IIIB | NNRTI-resistant (RT Y181C) | EC50 | MT-4 | >3.45 µM
COc1ccc(Sc2nc(N)nc3c2ncn3C[C@@H](CF)OP(=O)(O)O)cc1 | luciferase | NL4-3 | - | EC50 | TZM-bl | >100 µM
Cc1n[nH]c(=O)n1Cc1ccc(Br)c(Oc2cc(Cl)cc(C#N)c2)c1F | MTT | K103N/Y181C | NNRTI-resistant (RT K103N/Y181C) | EC50 | MT-4 | >0.1 µM
CC1=C(CCC(=O)O)c2cc3nc(cc4[nH]c(cc5[nH]c(cc1n2)c(C)c5C(COC(=O)c1ccc(N(C)C)cc1)OC(=O)c1ccc(N(C)C)cc1)c(C)c4C(COC(=O)c1ccc(N(C)C)cc1)OC(=O)c1ccc(N(C)C)cc1)C(C)=C3CCC(=O)O | p24 | IIIB | - | EC50 | MT-2 | 2.75 ± 0.22 µM
Nc1nc2c(c(F)cn2C[C@@H](CF)OCP(=O)(O)O)c(=O)[nH]1 | luciferase | NL4-3 | - | EC50 | PBMC | >100 µM
Cc1cn([C@H]2C[C@H](N=[N+]=[N-])[C@@H](CO)O2)c(=O)[nH]c1=O | p24 / ELISA | IIIB | - | EC50 | H9 | 0.045 µM
CCOC(=O)C1CN(Cc2ccc(S(N)(=O)=O)cc2)CCC1Nc1nc(Oc2c(C)cc(C#N)cc2C)c2sccc2n1 | MTT | RES056 | - | EC50 | MT-4 | ≥0.918 µM
Cc1cn([C@H]2C[C@H](N=[N+]=[N-])[C@@H](CO)O2)c(=O)[nH]c1=O | RT activity | IIIB | - | EC50 | MT-4 | 0.04 µM
O=C1c2ccccc2C(=O)N1CCOC(=S)N(C(=O)c1ccc(Cl)cc1)c1ccc(Cl)cc1 | cytopathic effect / MTT | IIIB | - | EC50 | C8166 | <0.02 µM
CC(C)OC(=O)[C@H](C)N[P@](=O)(CO[C@H](C)Cn1cnc2c(N)ncnc21)Oc1ccccc1 | luciferase | BaL | - | EC50 | TZM-bl | 0.0033 µM
CCCCCCCCCCCC(=O)O[C@@]12C[C@@H](C)[C@]34C=C(C)[C@H](O)[C@@]3(O)[C@H](O)C(COC(=O)OC)=C[C@H](C4=O)[C@@H]1C2(C)C | cytopathic effect / MTT | - | - | EC50 | MT-4 | 0.025 µg/mL
CN1C(=O)NC(=O)C1Cc1ccc(Br)c(Oc2cc(Cl)cc(C#N)c2)c1F | MTT | K103N/Y181C | NNRTI-resistant (RT K103N/Y181C) | EC50 | MT-4 | 0.011 µM
CCCCCCCCCCCCCCC[C@@H](O)[C@@H](N)CO | luciferase / cell fusion | - | - | EC90 | TZM-bl + HL2/3 | >14 µM
CCCCCCCCCCCC(=O)O[C@@]12C[C@@H](C)[C@]34C=C(C)[C@H](OC(=O)c5ccccc5)[C@@]3(O)[C@H](O)C(CO)=C[C@H](C4=O)[C@@H]1C2(C)C | cytopathic effect / MTT | - | - | EC50 | MT-4 | 0.00021 µg/mL
CNC(=O)CSP(=O)(NCC(=O)OC)OC[C@@H]1CC[C@H](n2ccc(N)nc2=O)O1 | cytopathic effect / XTT | - | - | EC50 | MT-4 | 1 µM
N#Cc1cc(Cl)cc(Oc2c(Br)ccc(Cc3ccc[nH]c3=O)c2F)c1 | MTT | - | Wild type | EC50 | MT-4 | 0.025 µM
COc1cc2c(cc1OC)[C@H]1[C@H]3C(=CC[C@H]1OC2=O)CCN3C | cytopathic effect / MTT | IIIB | - | EC50 | MT-4 | 7.3 µg/mL
Cc1cn([C@H]2C[C@H](F)[C@@H](CO)O2)c(=O)[nH]c1=O | cytopathic effect / XTT | - | - | EC50 | MT-4 | 0.005 µM
O=C1c2ccccc2C(=O)N1CCOC(=S)N(C(=O)c1ccco1)c1ccc([N+](=O)[O-])cc1 | cytopathic effect / MTT | IIIB | RT-K103R V179D P225H | EC50 | MT-4 | >100 µM
COC(=O)CNP(=O)(NCC(=O)OC)OC[C@H]1O[C@@H](n2cc(C)c(=O)[nH]c2=O)C[C@@H]1F | cytopathic effect / XTT | - | - | EC50 | MT-4 | 1.5 µM
N#Cc1cc(Cl)cc(Oc2c(Br)ccc(Cn3c(=O)[nH]c4ncccc43)c2F)c1 | MTT | K103N/Y181C | NNRTI-resistant (RT K103N/Y181C) | EC50 | MT-4 | 0.02 µM
CC(=O)OCC1=C[C@H]2[C@@H]3C(C)(C)[C@]3(OC(=O)Cc3ccccc3)C[C@@H](C)[C@]2(O)[C@@H]2C=C(C)C(=O)[C@@]2(O)C1 | MTT | IIIB | - | EC50 | MT-4 | 0.3 µM
CNC(=O)CSP(=O)(NCC(=O)OC)OC[C@@H]1CC[C@H](n2cnc3c(=O)[nH]cnc32)O1 | cytopathic effect / XTT | - | - | EC50 | MT-4 | 10 µM
CCCCCCCCCCCC(=O)O[C@@]12C[C@@H](C)[C@]34C=C(C)[C@@H]5OC(=O)O[C@@]53[C@H](O)C(COC(=O)OC)=C[C@H](C4=O)[C@@H]1C2(C)C | cytopathic effect / MTT | - | - | EC50 | MT-4 | 0.064 µg/mL
c1ccc2c(c1)ncc1cc3c(cc12)OCO3 | RT activity | IIIB | - | EC50 | MT-4 | 5 µg/mL
CC1=C(CCC(=O)O)c2cc3nc(cc4[nH]c(cc5[nH]c(cc1n2)c(C)c5C(COC(=O)B([B]C1[B][B][B][B]1)C1[B][B][B][B]1)OC(=O)B([B]C1[B][B][B][B]1)C1[B][B][B][B]1)c(C)c4C(COC(=O)B([B]C1[B][B][B][B]1)C1[B][B][B][B]1)OC(=O)B([B]C1[B][B][B][B]1)C1[B][B][B][B]1)C(C)=C3CCC(=O)O | p24 | IIIB | - | EC50 | MT-2 | 0.21 ± 0 µM
O=C(O)C1(O)C[C@@H](O)C(O)[C@H](O)C1 | cytopathic effect | LAI | - | EC50 | MT-2 | >350 µg/mL
Cc1ccnc2c1NC(=O)c1cccnc1N2C1CC1 | MTT | - | Wild type | EC50 | MT-4 | 0.08 µM
C=C1O[C@@H](n2cnc3c(N(Cc4ccccc4)Cc4ccccc4)ncnc32)C[C@@H]1OCc1ccccc1 | - | - | - | EC50 | - | 4 µM
CC1=C[C@H]2[C@@]3(O)[C@H](C)[C@@H](O)[C@]4(O)[C@H]([C@@H]3C=C(O)C[C@]2(O)C1=O)C4(C)C | MTT | IIIB | - | EC50 | MT-4 | >343 µM
Nc1ncnc2c1ncn2CCOCP(=O)(O)O | plaque count | IIIB | - | EC50 | HELA-T4 + HeLa | 0.9 µM
O[C@H]1[C@H]2c3cc4c(cc3CN3CCC(=C[C@@H]1O)[C@H]23)OCO4 | p24 | IIIB | - | EC50 | MT-4 | 0.4 µg/mL
CNC(=O)CSP(=O)(NCC(=O)OC)OC[C@H]1O[C@@H](n2cc(C)c(=O)[nH]c2=O)C[C@@H]1F | cytopathic effect / XTT | - | - | EC50 | MT-4 | 0.005 µM

For reference, 6 entries again:

compound	read by	strain or isolate	changes	read-out	cells	value
CC1=C[C@H]2[C@@]3(O)[C@H](C)[C@@H](O)[C@]4(O)[C@H]([C@@H]3C=C(O)C[C@]2(O)C1=O)C4(C)C	MTT	IIIB	-	EC50	MT-4	>343 µM
Cc1cn([C@H]2C[C@H](N=[N+]=[N-])[C@@H](CO)O2)c(=O)[nH]c1=O	MTT	IIIB	NNRTI-resistant (RT F227L V106A)	EC50	MT-4	0.00479 µM
Cc1cn([C@H]2C[C@H](N=[N+]=[N-])[C@@H](CO)O2)c(=O)[nH]c1=O	RT activity	IIIB	-	EC50	MT-4	0.04 µM
O=C(O)/C=C/c1ccc[c]([Sb](=[O])([OH])[OH])c1	β-galactosidase	92BR019 R5 clinical isolate	-	EC50	MAGI	<10 µM
CCCCCOC(=O)C[C@H](NP(=O)(CO[C@@H](CF)Cn1ccc2c(=O)[nH]c(N)nc21)N[C@@H](CC(=O)OCCCCC)C(=O)OCCCCC)C(=O)OCCCCC	luciferase	NL4-3	-	EC50	TZM-bl	>4 µM
CCCCCCCCCCCC(=O)O[C@@]12C[C@@H](C)[C@]34C=C(C)[C@H](O)[C@@]3(O)[C@H](O)C(COC(=O)OC)=C[C@H](C4=O)[C@@H]1C2(C)C	cytopathic effect / MTT	-	-	EC50	MT-4	0.025 µg/mL